Experimental data as given in paper PMC13577091.
The exact form of at least one protein or probe is not confirmed.

Tested on: CcpA + HPr-Ser46~P (S46D phosphomimetic)
Experiment: EMSA
Details: HPr-Ser46~P (S46D) added, enhances CcpA binding more than HPr; Beyotime chemiluminescent EMSA kit, 5X binding buffer (composition and pH not stated), 10 ul, room temperature, 10 min then 20 min with labeled probe, 6% acrylamide gel; recombinant protein; label: 5' biotin (reverse primer); probe letters rebuilt from the primers and the genome

Sequence: TACACATCTGCTTCTAAAATATTGTTAGAAAACGATTTGACTGTCCTGATCAATTTGTCATGTTCTTATTTCATTTTACTATATTTTTGGTTCGCGGGAAGTCTACTAAGATACTTAAAGATGCAGATAGTGAAAAAAGGTGTAGACATTACCGTAAAAAAGTGATATAATCGTAAGATGTTCAATGTATAGGTGTTAATCATGAGTAGACGTTTTAA (double strand) [Pcps promoter probe]
- binding result: binds
